Results of unrelated studies side by side (data: NIAID ChemDB).

Common to all: toxicity to cultured cells; read-out: CC50

Conditions beyond the fields shown may differ between rows. CCn is the concentration with n% toxicity to the cells. An empty or dashed field is not shown.

compound | read by | cells | value
C=CCC1=CCCc2cc(OC)c(OC)cc21 | - | BJ | <7.5 µM
Cc1cc(C2CC2)n2nc(S(=O)(=O)Nc3c(C)ccc(Cl)c3C)nc2n1 | WST | K562 (CRL-1573) | 95 µg/mL
CC(C)C[C@@H]1NC(=O)[C@H](Cc2c[nH]c3ccccc23)NC(=O)[C@@H](CO)NC(=O)[C@H](CC(N)=O)NC(=O)[C@H](C(C)C)NC(=O)[C@@H](CC(C)C)NC1=O | MTT | Lung carcinoma cells | >30 µM
Cc1cc(C2CC2)n2nc(S(=O)(=O)Nc3c(C)cccc3C(C)C)nc2n1 | WST | HEPG2 (HB-8065) | >128 µg/mL
Nc1c2c(nc(=S)n1-c1ccccc1)SC(c1ccncc1)C1=C2/C(=C/c2ccncc2)CCC1 | MTT | MGC-803 | 14.8 µM
CCN(CC)C(=S)Sc1ncnc(N2CC[N+]3(CC2)CC[N+]2(CCN(c4ncnc(SC(=S)N(CC)CC)c4[N+](=O)[O-])CC2)CC3)c1[N+](=O)[O-] | - | L929 | >224.2 µg/mL
CCn1c(-c2ccccc2)c(C)c(=O)c2cc(OCC(C)C)c(C)cc21 | MTT | HELA-OHIO | >4 µg/mL
CC(C)N(Cc1cccc(OCCCCCC(=O)OC(=O)O)c1)C(=O)c1ccc(-c2ccncc2)cc1 | - | RAJI | >20 µM
O=[N+]([O-])c1cncnc1N1CC[N+]2(CC1)CC[N+]1(CCN(c3ncncc3[N+](=O)[O-])CC1)CC2 | - | L929 | >369.4 µg/mL
C[C@@]1(O)[C@H](O)[C@@H](COP(=O)(O)OP(=O)(O)OP(=O)(O)O)O[C@H]1n1ccc2c(N)ncnc21 | - | MA-104 | >320 µM
Cc1cc(CNC(=O)c2nc3n(c(=O)c2O)CCN(C)CC3N(C)C(=O)C(=O)N(C)C)ccc1F | microscopy | MT-4 | >1 µM
O=C1Cn2c(nc3c(c2=S)C2=C(CCC/C2=C\c2ccncc2)C(c2ccncc2)S3)S1 | MTT | CNE-2 | 45.1 µM
Cc1nc(N2CCCC2)c([N+](=O)[O-])c(N2CC[N+]3(CC2)CC[N+]2(CCN(c4nc(C)nc(N5CCCC5)c4[N+](=O)[O-])CC2)CC3)n1 | - | L929 | >281.8 µg/mL
CCOC(=O)CCCCCOc1cccc(CN(C(=O)c2ccc(-c3cc(C(F)(F)F)cc(C(F)(F)F)c3)cc2)C(C)C)c1 | - | RAJI | >20 µM
CCc1cn([C@H]2C[C@H](O)[C@@H](CO)O2)c(=O)[nH]c1=O | cell count | RF | 602 µM
CCn1c(-c2ccccc2)c(C)c(=O)c2ccc(C(C)C)cc21 | MTT | HELA-OHIO | >10 µg/mL
CC(=O)N1CCn2c(nc(C(=O)NCc3ccc(F)cc3)c(O)c2=O)C1CO | microscopy | MT-4 | >1 µM
CC(C)C[C@@H]1NC(=O)[C@H](Cc2c[nH]c3ccccc23)NC(=O)[C@@H](CCCCN)NC(=O)[C@H](C)NC(=O)[C@H](C(C)C)NC(=O)[C@@H](CC(C)C)NC1=O | MTT | Colorectal carcinoma | >30 µM
CC1c2nc(C(=O)NCc3ccc(F)cc3)c(O)c(=O)n2CCN1C(=O)C(=O)N(C)C | microscopy | MT-4 | >1 µM
Nc1nc2c(ncn2CCC(CO)CO)c(=O)[nH]1 | cell count | BCBL-1 | 138 µM
CC(C)c1ccc2c(c1)c(=O)cc(-c1ccco1)n2C | MTT | HeLa S3 | >20 µg/mL
CSc1nc(Cl)c(C=O)c(N2CC[N+]3(CC2)CC[N+]2(CCN(c4nc(SC)nc(Cl)c4C=O)CC2)CC3)n1 | - | GMK | >552 µg/mL
COc1ccc(-c2c(C)c(=O)c3cc(OCC(C)C)c(C)cc3n2C)cc1C | MTT | HELA-OHIO | >4 µg/mL
Nc1c(N2CC[N+]3(CC2)CC[N+]2(CCN(c4nc[nH]c(=O)c4N)CC2)CC3)nc[nH]c1=O | - | GMK | >659.6 µg/mL
CCn1c(-c2ccsc2)cc(=O)c2cc(C(C)C)ccc21 | MTT | HELA-OHIO | 15 µg/mL
Cc1cc(C2CC2)n2nc(S(=O)(=O)Nc3c(C)csc3S(C)=O)nc2n1 | WST | K562 (CRL-1573) | >128 µg/mL
O=C(O)c1cc(-c2cccs2)nc2ccccc12 | - | BJ | >20 µM
CC(C)C[C@@H]1NC(=O)[C@H](Cc2c[nH]c3ccccc23)NC(=O)CNC(=O)[C@H](CC(N)=O)NC(=O)[C@H]([C@@H](C)O)NC(=O)[C@@H](CC(C)C)NC1=O | MTT | Colorectal carcinoma | >30 µM
O=c1[nH]c(=O)n([C@@H]2O[C@H](CO)[C@@H](O)[C@@H]2O)cc1/C=C/Br | cell count | RF | 670 µM
CCn1c(-c2cccs2)cc(=O)c2cc(C(C)C)ccc21 | MTT | HELA-OHIO | 14 µg/mL
Cc1nc(Cl)c([N+](=O)[O-])c(N2CC[N+]3(CC2)CC[N+]2(CCN(c4nc(C)nc(Cl)c4[N+](=O)[O-])CC2)CC3)n1 | - | L929 | >288 µg/mL
CC1(C)c2nc(C(=O)NCc3ccc(F)cc3)c(O)c(=O)n2CCN1CC(N)=O | microscopy | MT-4 | >1 µM
O=c1sc2nc3c(c(=S)n2/c1=C/c1ccccc1)C1=C(CCC/C1=C\c1ccncc1)C(c1ccncc1)S3 | MTT | CNE-2 | 39.3 µM
Cc1c(-c2ccccc2)n(-c2ccccc2)c2ccc(C(C)C)cc2c1=O | MTT | HELA-OHIO | >5 µg/mL
Cn1cc(CN2CCn3c(nc(C(=O)NCc4ccc(F)cc4)c(O)c3=O)C2(C)C)nn1 | microscopy | MT-4 | >1 µM
COc1ccc(C[C@H](N)C(=O)N[C@H]2[C@@H](O)[C@H](n3cnc4c(N(C)C)ncnc43)O[C@@H]2CO)cc1 | WST | HEPG2 (HB-8065) | 0.32 µg/mL
CCCc1ccc2c(c1)c(=O)c(C)c(-c1ccccc1)n2CC | MTT | HELA-OHIO | 5.8 µg/mL
O=c1[nH]c(=O)n([C@H]2C[C@H](O)[C@@H](CO)O2)cc1/C=C/Br | cell count | P3HR-1 | 495 µM
CC[C@H](C)[C@@H]1NC(=O)[C@@H](CC(C)C)NC(=O)[C@H](CC(C)C)NC(=O)[C@H](Cc2c[nH]c3ccccc23)NC(=O)CNC(=O)[C@H](CC(N)=O)NC1=O | MTT | Lung carcinoma cells | >30 µM
CC(=O)NC1CN(C)CCn2c1nc(C(=O)NCc1ccc(F)cc1)c(O)c2=O | microscopy | MT-4 | >1 µM
CCN(CC)C(=O)N1CCN(c2ncnc(N3CC[N+]4(CC3)CC[N+]3(CCN(c5ncnc(N6CCN(C(=O)N(CC)CC)CC6)c5[N+](=O)[O-])CC3)CC4)c2[N+](=O)[O-])CC1 | - | GMK | >509.2 µg/mL
CCO/C(C)=N\C1=C(C#N)C2=C(CCC/C2=C\c2ccncc2)C(c2ccncc2)S1 | MTT | MGC-803 | 48.6 µM

Repeating the first 3 entries:

{"compound": "C=CCC1=CCCc2cc(OC)c(OC)cc21", "cells": "BJ", "value": "<7.5 µM"}
{"compound": "Cc1cc(C2CC2)n2nc(S(=O)(=O)Nc3c(C)ccc(Cl)c3C)nc2n1", "read by": "WST", "cells": "K562 (CRL-1573)", "value": "95 µg/mL"}
{"compound": "CC(C)C[C@@H]1NC(=O)[C@H](Cc2c[nH]c3ccccc23)NC(=O)[C@@H](CO)NC(=O)[C@H](CC(N)=O)NC(=O)[C@H](C(C)C)NC(=O)[C@@H](CC(C)C)NC1=O", "read by": "MTT", "cells": "Lung carcinoma cells", "value": ">30 µM"}